Anti-infective test results gathered from many reports (values: NIAID ChemDB through PubChem).

Shared fields: tests in culture; organism: Hepatitis C virus; endpoint: EC50

An empty or dashed field is not shown.

smiles,strain,mutations,cells,method,result
Nc1ncnc2c1c(-c1cccs1)cn2[C@H]1O[C@H](CO)[C@@H](O)C1(F)F,1b,,HCV replicon,replicon,0.44 µM
S=C(NCCCCc1ccccc1)Nc1ccc2c(c1)Cc1cc(Br)ccc1-2,,,Ava5-EG(delta4AB)SEAP,reporter gene / fluorescence,0.001–1 µM
CC1(C)CC(=O)C2=C(C1)Nc1c(O)cccc1N(C(=O)NCC(=O)O)C2c1ccc(OCc2ccccc2)cc1Cl,1b,,,luciferase / reporter gene / replicon,39.65 µM
CC1CCC(C(=O)N(c2cc(-c3ccc(NC(=O)c4cccnn4)cc3)sc2C(=O)O)C2CCC2)CC1,1b,,,replicon,<0.5 µM
COc1ccc(Cl)cc1Nc1ncnc2c1cnn2-c1ccccc1,,,HUH 9B,replicon,1–10 µM
O=c1oc2ccccc2cc1CNc1cc([N+](=O)[O-])cc([N+](=O)[O-])c1,,,Ava5,,100 µM
NC(=S)Nc1cccc(OCCCCCOc2ccc3ccccc3c2)c1,,,Ava5-EG(delta4AB)SEAP,reporter gene / fluorescence,0.001–1 µM
Cc1ccc(-n2ncc3c(Nc4cccc(C(F)(F)F)c4)ncnc32)c(C)c1,,,HUH 9B,replicon,1–10 µM
NC(=S)Nc1cccc(OCCCCCNc2ccccc2-c2ccco2)c1,,,Ava5-EG(delta4AB)SEAP,reporter gene / fluorescence,0.001–1 µM
CCCCn1c(=O)c2cc(OC)ccc2c2cc(C(O)(C(F)(F)F)C(F)(F)F)c(OC)cc21,1b,,#50-1,PCR,0.4 µM
NC(=S)Nc1cccc(OCCCCCc2ccccc2)c1,,,Ava5-EG(delta4AB)SEAP,reporter gene / fluorescence,0.001–1 µM
Cc1ccc(-n2ncc3c(NC(=O)Nc4ccc(OCc5ccccn5)cc4)ncnc32)c(C)c1,,,HUH 9B,replicon,<1 µM
NC(=S)Nc1ccc(OCCCCCOc2ccc(Cl)cc2Cl)cc1,,,Ava5-EG(delta4AB)SEAP,reporter gene / fluorescence,0.001–1 µM
Cc1ccc(-n2ncc3c(CNc4ccc(Cl)c(Cl)c4)ncnc32)c(C)c1,,,HUH 9B,replicon,1–10 µM
COc1cc(NCc2cc3ccccc3oc2=O)cc(OC)c1OC,,,Ava5,,12 µM
NC(=S)Nc1cccc(OCCCCCOc2ccccc2-c2ccc(C(F)(F)F)cc2)c1,,,Ava5-EG(delta4AB)SEAP,reporter gene / fluorescence,0.001–1 µM
Nc1ncnc2c1c(I)cn2[C@H]1O[C@H](CO)[C@@H](O)C1(F)F,1a,,HCV replicon,replicon,2.48 µM
CC1CCC(C(=O)N(c2cc(-c3ccc(NC(=O)c4c(F)cccc4F)cc3)sc2C(=O)O)C(C)C)CC1,1a,,,replicon,<0.5 µM
O=C(N[C@@H](C(=O)N1CCC[C@H]1c1ncc(-c2ccc(-c3ccc(-c4cnc([C@@H]5CCCN5C(=O)[C@H](NC(=O)C5CC5)c5ccccc5)s4)cc3)cc2)s1)c1ccccc1)C1CC1,genotype 1b,Y93N+V153M+M202L+M265V,Huh7.5,luciferase / reporter gene,0.0273 µM
Nc1ncnc2c1c(-c1ccco1)cn2[C@@H]1O[C@H](CO)[C@@H](O)C1(F)F,1b,,HCV replicon,replicon,4.93 µM
C=CCCNC(=O)CCC(=O)N1c2cccc(O)c2NC2=C(C(=O)CC(C)(C)C2)C1c1ccc(OCc2ccccc2)cc1Cl,1b,,,luciferase / reporter gene / replicon,8.75 µM
Cc1cc(Cl)ccc1NCc1cc2ccccc2oc1=O,,,Ava5,,85 µM
CC1CCC(C(=O)N(c2cc(-c3ccc(NC(=O)c4ccn(C)n4)cc3)sc2C(=O)O)C(C)C)CC1,1a,,,replicon,<0.5 µM
Cc1ccc(-n2ncc3c(Nc4ccc(C(F)(F)F)cc4)ncnc32)c(C)c1,,,HUH 9B,replicon,<1 µM
CNC(=O)c1c(-c2ccc(F)cc2)oc2cc(N(Cc3ccc(B(O)O)c(F)c3)S(C)(=O)=O)c(C3CC3)cc12,H77 genotype 1a,,Huh7.5,luciferase,0.003 µM
Nc1ncnc2c1c(-c1ccsc1)cn2[C@@H]1O[C@H](CO)[C@@H](O)[C@H]1F,1b,,HCV replicon,replicon,5.98 µM
CCCN(CCC)c1ccc2c(c1)Cc1cc(NC(N)=S)ccc1-2,,,Ava5-EG(delta4AB)SEAP,reporter gene / fluorescence,0.001–1 µM
CC[C@@H]1C[C@]1(NC(=O)C1CC(Oc2cc(-c3csc(NC(C)C)n3)nc3c(Cl)c(OCCN4CCOCC4)ccc23)CN1C(=O)[C@@H](NC(=O)C1C[C@@H]2C[C@@H]2C1)C(C)(C)C)C(=O)O,1b,,Huh-luc,replicon,0.002 µM
Nc1ncnc2c1c(-c1ccco1)cn2[C@@H]1O[C@H](CO)[C@@H](O)[C@H]1F,2a,,HCV replicon,replicon,10.74 µM
CCOc1ccc(Nc2ncnc3c2cnn3-c2ccc(Cl)cc2Cl)cc1,,,HUH 9B,replicon,1–10 µM
CC(=O)N1c2cccc(O)c2NC2=C(C(=O)CC(C)(C)C2)C1c1ccc(Oc2ccccc2-c2ccccc2)cc1Cl,1b,,,luciferase / reporter gene / replicon,7.54 µM
O=C(Nc1ccc(-c2cc(N(CC3CC3)C(=O)C3CCC(C(F)(F)F)CC3)c(C(=O)O)s2)cc1)c1cscn1,1a,,,replicon,<0.5 µM
O=c1oc2ccccc2cc1CNc1cccc([N+](=O)[O-])c1,,,Ava5,,>100 µM
Cc1cc(-c2cc(N(C(=O)C3CCC(C)CC3)C(C)C)c(C(=O)O)s2)cnc1NC(=O)c1cscn1,1b,,,replicon,<0.5 µM
COC(=O)N[C@H](C(=O)N1CCC[C@H]1c1ncc(-c2ccc(-c3ccc(-c4cnc([C@@H]5CCCN5C(=O)[C@@H](NC(=O)OC)C(C)C)[nH]4)cc3)cc2)[nH]1)C(C)C,1b,Y93H,ET,luciferase,0.00044 µM
CC[C@@H]1C[C@]1(NC(=O)C1CC(Oc2cc(-c3csc(NC(C)C)n3)nc3c(Cl)c(OCCN4CCCCC4)ccc23)CN1C(=O)[C@@H](NC(=O)C1C[C@@H]2C[C@@H]2C1)C(C)(C)C)C(=O)O,1b,,Huh-luc,replicon,0.0075 µM
Nc1ncnc2c1c(-c1ccsc1)cn2[C@H]1O[C@H](CO)[C@@H](O)C1(F)F,2a,,HCV replicon,replicon,8.52 µM
Cc1ccc(-n2ncc3c(NC(=O)Nc4cccc(Cl)c4Cl)ncnc32)c(C)c1,,,HUH 9B,replicon,1–10 µM
CCc1cc(C(=O)Nc2ccc(-c3cc(N(C(=O)C4CCC(C)CC4)C(C)C)c(C(=O)O)s3)cc2)no1,1b,,,replicon,<0.5 µM
CC1(C)CC(=O)C2=C(C1)Nc1c(O)cccc1NC2c1ccc(F)cc1F,1b,,,luciferase / reporter gene / replicon,>100 µM
NC(=S)Nc1cccc(OCCCCCOc2ccncc2)c1,,,Ava5-EG(delta4AB)SEAP,reporter gene / fluorescence,0.001–1 µM
Nc1ncnc2c1c(-c1ccccc1)cn2[C@@H]1O[C@H](CO)[C@@H](O)[C@H]1F,1b,,HCV replicon,replicon,18.83 µM

4 of the rows above, restated:

CNC(=O)c1c(-c2ccc(F)cc2)oc2cc(N(Cc3ccc(B(O)O)c(F)c3)S(C)(=O)=O)c(C3CC3)cc12 ; strain: H77 genotype 1a ; cells: Huh7.5 ; method: luciferase ; result: 0.003 µM
O=C(Nc1ccc(-c2cc(N(CC3CC3)C(=O)C3CCC(C(F)(F)F)CC3)c(C(=O)O)s2)cc1)c1cscn1 ; strain: 1a ; method: replicon ; result: <0.5 µM
Cc1cc(-c2cc(N(C(=O)C3CCC(C)CC3)C(C)C)c(C(=O)O)s2)cnc1NC(=O)c1cscn1 ; strain: 1b ; method: replicon ; result: <0.5 µM
NC(=S)Nc1ccc(OCCCCCOc2ccc(Cl)cc2Cl)cc1 ; cells: Ava5-EG(delta4AB)SEAP ; method: reporter gene / fluorescence ; result: 0.001–1 µM

Conditions beyond the fields shown may differ between rows. ECn is the concentration giving n% inhibition of infection, replication or growth. Two numbers with a dash give a range or band.